Reference: article PMC4138406, “In vitro and in vivo anti-malarial activity of limonoids isolated from the residual seed biomass from Carapa guianensis (andiroba) oil production” (Malaria Journal, 2014)

Tested on: MRC-5 human fibroblasts
Experiment: Cytotoxicity assay (AlamarBlue) on MRC-5 human fibroblasts
Type: cell-based
Details: MRC-5 vs P. falciparum K1
Description: The MRC-5 cell line of human fibroblasts was grown in Dulbecco’s Modified Eagle’s Medium (DMEM) supplemented with 10% fetal bovine serum, 2 mM glutamine, 100 μg/mL streptomycin and 100 U/mL penicillin, and incubated at 37°C with a 5% atmosphere of CO2. For assays, the cells were plated in 96-well plates (2.5 × 10^4 cells/well) and the AlamarBlue™ assay was performed using a previously described procedure. After incubation for 24 h, compounds 1-5 were individually dissolved in DMSO and the resulting solutions were diluted in culture medium. The resulting dilute solutions of each sample were added to wells at final (well) concentrations of 1.56-100 μg/mL. Control groups had final well concentrations of 0.1% DMSO. The plates were further incubated for 48 h. 3 h before the end of the incubation period, AlamarBlue™ (10 μL) was added to each well. The fluorescent signal was monitored with a multiplate reader using 530-560 nm excitation and 590 nm emission wavelengths.

| Structure (SMILES) | SI = IC50 (human fibroblasts)/IC50 (P. falciparum) |
| --- | --- |
| C=C1[C@@H]([C@@]2(C)C=CC(=O)C(C)(C)[C@@H]2CC(=O)OC)CC[C@@]2(C)[C@H](c3ccoc3)OC(=O)[C@H]3O[C@]132 [compound 2, andirobin] | >13 |
| CC1(C)C(=O)C=C[C@@]2(C)C1[C@@H](O)[C@@H](O)[C@]1(C)C2CC[C@@]2(C)[C@H](c3ccoc3)OC(=O)[C@H]3O[C@]321 (stereo partly drawn) [compound 5, 6α-hydroxydeacetylgedunin] | >44 |
